Measured values from several laboratories, pooled; numbers as filed in NIAID ChemDB.

Shared fields: target-level tests

ICn is the concentration giving n% inhibition. Percent inhibition refers to the dose given; in toxicity tests it is the harm to the cells. Rows are shuffled and stem from different studies.

CO[C@H]1/C=C/O[C@@]2(C)Oc3c(C)c(O)c4c(=O)c(c5oc6cc(N7CCN(CC(C)C)CC7)cc(=O)c6nc5c4c3=C2O)NC(=O)/C(C)=C\C=C\[C@H](C)[C@H](O)[C@@H](C)[C@@H](O)[C@@H](C)[C@H](OC(C)=O)[C@@H]1C ; agent: Mycobacterium fortuitum ; strain: F-65 ; protein: RNA polymerase ; measure: IC50 ; value: >10 µg/mL
O=c1[nH]c(=O)c2c([nH]1)n(C[C@H](O)[C@H](O)[C@H](O)CO)c(=O)c(=O)n2CCCCCOP(=O)(O)O ; agent: Mycobacterium tuberculosis ; protein: Lumazine synthase ; measure: Ki ; value: 0.012 µM
Cn1c(=O)sn(-c2cccc3ccccc23)c1=O ; agent: Mycobacterium tuberculosis ; strain: H37Rv ; protein: Alanine racemase ; read by: HPLC ; measure: IC50 ; value: 0.12 µM
O=C(Nc1ccccc1)N1CCc2c(c(-c3ccccc3)nn2Cc2cn(-c3ccc(Cl)cc3Cl)nn2)C1 ; agent: Mycobacterium tuberculosis ; protein: Pantothenate synthetase ; read by: absorbance ; measure: IC50 ; value: 1.29 µM
NC(=O)c1cnccn1 ; agent: Mycobacterium smegmatis ; protein: Fatty acid synthase I ; measure: IC50 ; value: >2000 µg/mL
NC(=O)c1c(NC(=O)Nc2ccc3c(c2)OCO3)sc2c(Cl)c(O)ccc12 ; agent: Mycobacterium tuberculosis ; protein: Glucose-6-phosphate dehydrogenase (GPDH) ; read by: absorbance ; measure: inhibition ; dose: 100 µM ; value: <1%
CCCCCCCN1C(=O)N(Cc2ccccc2)C(=O)C[C@H]1C1OC2OC(C)(C)OC2[C@H]1OC ; agent: Mycobacterium aurum ; protein: Alpha-glucosidase ; measure: inhibition ; dose: 100 µM ; value: 0.72%
CCCCCCCCO[C@H]1O[C@H](CO[C@H]2O[C@H](CN(CC3CCCCC3)CC3CCCCC3)[C@@H](O)[C@@H]2O)[C@@H](O)[C@@H]1O ; agent: Mycobacterium tuberculosis ; strain: H37Ra ; protein: Arabinofuranosyltransferase ; measure: IC50 ; value: 1560 µM
O=C(O)[C@H]1/C(=C/CO)O[C@@H]2CC(=O)N21 ; agent: Mycobacterium tuberculosis ; strain: TB3 ; protein: Beta-lactamase ; measure: IC50 ; value: 0.05 µg/mL
CCCCCCCCO[C@H]1O[C@H](CO[C@H]2O[C@H](CNC(=O)C(C)(C)C)[C@@H](O)[C@@H]2O)[C@@H](O)[C@@H]1O ; agent: Mycobacterium tuberculosis ; strain: H37Ra ; protein: Arabinofuranosyltransferase ; measure: IC50 ; value: 2490 µM
COc1c(N2CCN(CN3C(=O)C(=Nc4ccc(S(=O)(=O)Nc5ncccn5)cc4)c4cc(F)ccc43)C(C)C2)c(F)cc2c(=O)c(C(=O)O)cn(C3CC3)c12 ; agent: Mycobacterium tuberculosis ; protein: Gyrase ; measure: IC50 ; value: 6 µM
O=c1[nH]c(=O)c2c([nH]1)n(C[C@H](O)[C@H](O)[C@H](O)CO)c(=O)n2CCCCP(=O)(O)O ; agent: Mycobacterium tuberculosis ; protein: Lumazine synthase ; measure: Ki ; value: 0.0041 µM
CC1(C)[C@H](C(=O)O)N2C(=O)C[C@H]2S1(=O)=O ; agent: Mycobacterium tuberculosis ; strain: TB3 ; protein: Beta-lactamase ; measure: IC50 ; value: 0.75 µg/mL
O=C1NC(=O)C2C(N1)N(C[C@H](O)[C@H](O)[C@H](O)CO)C(=O)N2CCCOP(=O)(O)O ; agent: Mycobacterium tuberculosis ; protein: Lumazine synthase ; measure: Ki ; value: 4.5 µM
O=C(O)c1c2n(c3cc(N4CCN(C(c5ccccc5)c5ccc(Cl)cc5)CC4)c([N+](=O)[O-])cc3c1=O)CS2 ; agent: Mycobacterium smegmatis ; strain: ATCC 14468 MC2 ; protein: DNA gyrase ; read by: gel ; measure: IC50 ; value: 50 µg/mL
CCCCCCCCO[C@H]1O[C@H](CO[C@H]2O[C@H](CNC(=O)c3ccccc3)[C@@H](O)[C@@H]2O)[C@@H](O)[C@@H]1O ; agent: Mycobacterium tuberculosis ; strain: H37Ra ; protein: Arabinofuranosyltransferase ; measure: IC50 ; value: 2250 µM
O=C(O)c1c2n(c3cc(N4CCN(C(=O)c5ccco5)CC4)c([N+](=O)[O-])cc3c1=O)CS2 ; agent: Mycobacterium smegmatis ; strain: ATCC 14468 MC2 ; protein: DNA gyrase ; read by: gel ; measure: IC50 ; value: 50 µg/mL
COc1c(N2CCN(CN3C(=O)C(=Nc4ccc(S(=O)(=O)Nc5ncccn5)cc4)c4cc(C)ccc43)C(C)C2)c(F)cc2c(=O)c(C(=O)O)cn(C3CC3)c12 ; agent: Mycobacterium tuberculosis ; protein: Gyrase ; measure: IC50 ; value: 3 µM
COc1ccc(-n2cc(Cn3nc(-c4ccccc4)c4c3CCN(C(=O)Nc3ccccc3)C4)nn2)cc1 ; agent: Mycobacterium tuberculosis ; protein: Pantothenate synthetase ; read by: absorbance ; measure: IC50 ; value: 1.01 µM
COc1c(N2CCN(Cn3c(O)c(N=NC(N)=O)c4cc(C)ccc43)C(C)C2)c(F)cc2c(=O)c(C(=O)O)cn(C3CC3)c12 ; agent: Mycobacterium tuberculosis ; protein: Gyrase ; measure: IC50 ; value: 4.5 µM
CCCCN1C(=O)N(c2ccc(F)cc2)C(=O)C[C@H]1C1OC2OC(C)(C)OC2[C@H]1Oc1ccccc1 ; agent: Mycobacterium aurum ; protein: Alpha-glucosidase ; measure: inhibition ; dose: 100 µM ; value: 17.3%
NNC(=O)c1ccncc1 ; agent: Mycobacterium tuberculosis ; strain: H37Rv ; protein: Isocitrate lyase ; measure: IC50 ; value: 1000 µM
O=C1NC(=O)C2C(N1)N(C[C@H](O)[C@H](O)[C@H](O)CO)C(=O)N2CCCCC(F)(F)P(=O)(O)O ; agent: Mycobacterium tuberculosis ; protein: Lumazine synthase ; measure: Ki ; value: 60 µM
NCCCOc1ccc(Nc2ncc3ccc(=O)n(C4CCCC4)c3n2)cc1 ; agent: Mycobacterium tuberculosis ; protein: Protein kinase B ; read by: kinase activity / radiometric ; measure: inhibition ; dose: 10 µM ; value: 94.2%
COc1ccc(-n2cc(Cn3nc(-c4ccccc4)c4c3CCN(C(=O)Nc3ccccc3)C4)nn2)cc1OC ; agent: Mycobacterium tuberculosis ; protein: Pantothenate synthetase ; read by: absorbance ; measure: IC50 ; value: 8.21 µM
Cc1c(Br)c(=O)n(C2CCCC2)c2nc(Nc3ccc(N4CCN(C)CC4)cc3)ncc12 ; agent: Mycobacterium tuberculosis ; protein: Protein kinase B ; read by: kinase activity / radiometric ; measure: IC50 ; value: 0.129 µM
Cc1noc(C)c1-n1sc(=O)n(-c2ccc(F)cc2)c1=O ; agent: Mycobacterium smegmatis ; strain: mc2155 ; protein: Alanine racemase ; read by: HPLC ; measure: IC50 ; value: 68.01 µM
O=C(Nc1ccccc1)N1CCc2c(c(-c3ccccc3)nn2Cc2cn(-c3ccc([N+](=O)[O-])cc3)nn2)C1 ; agent: Mycobacterium tuberculosis ; protein: Pantothenate synthetase ; read by: absorbance ; measure: IC50 ; value: 8.97 µM
OCC1=C[C@H](N[C@H]2[C@@H](O)[C@@H](O)[C@@H](OC3[C@@H](O)[C@@H](O)[C@@H](O[C@H]4[C@@H](O)[C@@H](O)[C@H](O)O[C@@H]4CO)O[C@@H]3CO)O[C@@H]2CO)[C@H](O)[C@H](O)[C@@H]1O ; agent: Mycobacterium aurum ; protein: Alpha-glucosidase ; measure: inhibition ; dose: 50 µM ; value: 68%
O=c1sn(-c2ccccc2C(F)(F)F)c(=O)n1CC1CC1 ; agent: Mycobacterium smegmatis ; strain: mc2155 ; protein: Alanine racemase ; read by: HPLC ; measure: IC50 ; value: 16.6 µM
COc1c(N2CCN(Cn3c(O)c(N=NC(N)=S)c4cc(Cl)ccc43)C(C)C2)c(F)cc2c(=O)c(C(=O)O)cn(C3CC3)c12 ; agent: Mycobacterium tuberculosis ; protein: Gyrase ; measure: IC50 ; value: 4 µM
Cc1noc(C)c1-n1sc(=O)n(CC2CC2)c1=O ; agent: Mycobacterium tuberculosis ; strain: H37Rv ; protein: Alanine racemase ; read by: HPLC ; measure: IC50 ; value: 1.46 µM
O=C1NC(=O)C2C(N1)N(C[C@H](O)[C@H](O)[C@H](O)CO)C(=O)N2CCCCCOP(=O)(O)O ; agent: Mycobacterium tuberculosis ; protein: Lumazine synthase ; measure: Ki ; value: 4.7 µM
O=C(Nc1ccccc1)N1CCc2c(c(-c3ccccc3)nn2Cc2cn(-c3cc(Cl)cc(Cl)c3)nn2)C1 ; agent: Mycobacterium tuberculosis ; protein: Pantothenate synthetase ; read by: absorbance ; measure: IC50 ; value: 4.76 µM
C/C(=N/N=C(N)N)c1cc(NC(=O)CCC(=O)Nc2cc(/C(C)=N\N=C(N)N)cc(/C(C)=N/N=C(N)N)c2)cc(/C(C)=N/N=C(N)N)c1 ; agent: Mycobacterium tuberculosis ; protein: Protein kinase B ; read by: kinase activity / radiometric ; measure: inhibition ; dose: 10 µM ; value: 99.1%
O=c1sn(-c2ccc(F)c(Cl)c2)c(=O)n1C1Cc2ccccc2C1 ; agent: Mycobacterium smegmatis ; strain: mc2155 ; protein: Alanine racemase ; read by: HPLC ; measure: IC50 ; value: >100 µM
CC1(C)OC2OC([C@@H]3CC(=O)N(c4ccc(Cl)cc4)C(=O)N3C3CC3)[C@H](Oc3ccccc3)C2O1 ; agent: Mycobacterium aurum ; protein: Alpha-glucosidase ; measure: inhibition ; dose: 100 µM ; value: 0%
O=C(Nc1ccccc1)N1CCc2c(c(-c3ccccc3)nn2Cc2cn(-c3ccc(F)c(Cl)c3)nn2)C1 ; agent: Mycobacterium tuberculosis ; protein: Pantothenate synthetase ; read by: absorbance ; measure: IC50 ; value: 6.43 µM
COc1c(N2CCN(Cn3c(O)c(N=NC(N)=S)c4cc(F)ccc43)C(C)C2)c(F)cc2c(=O)c(C(=O)O)cn(C3CC3)c12 ; agent: Mycobacterium tuberculosis ; protein: Gyrase ; measure: IC50 ; value: 8 µM
O=C(Nc1ccccc1)N1CCc2c(c(-c3ccccc3)nn2Cc2cn(-c3ccc(Br)cc3)nn2)C1 ; agent: Mycobacterium tuberculosis ; protein: Pantothenate synthetase ; read by: absorbance ; measure: IC50 ; value: 2.46 µM
O=C(O)c1c2n(c3cc(N4CCC(O)(c5ccc(Cl)cc5)CC4)c([N+](=O)[O-])cc3c1=O)CS2 ; agent: Mycobacterium smegmatis ; strain: ATCC 14468 MC2 ; protein: DNA gyrase ; read by: gel ; measure: IC50 ; value: >50 µg/mL
Cc1ccc(-n2sc(=O)n(Cc3ccc(F)cc3)c2=O)cc1 ; agent: Mycobacterium smegmatis ; strain: mc2155 ; protein: Alanine racemase ; read by: HPLC ; measure: IC50 ; value: >100 µM
C[C@H]1COC2(CCN(c3nc(=O)c4cc(C(F)(F)F)cc([N+](=O)[O-])c4s3)CC2)O1 ; agent: Mycobacterium tuberculosis ; protein: Cytochrome P450 3A4 ; read by: fluorescence / absorbance ; measure: IC50 ; value: 57.64 µM